Measured values as given in ChEMBL document CHEMBL1148369, “Novel S-substituted aminoalkylamino ethanethiols as potential antidotes against sulfur mustard toxicity” (2004).

test system: Mus musculus; test: LD50 following oral dosing.

Row | Structure (SMILES) | LD50
1 | Cl.Cl.NCCNCCSc1ccc(Cl)cc1 | 1130 mg/kg
2 | Cl.Cl.NCCNCCSc1ccccc1 | 1250 mg/kg
3 | Cl.Cl.NCCCCNCCSc1ccccc1 | 952 mg/kg
4 | Cl.Cl.NCCCNCCSC1CCCCC1 | 1130 mg/kg
5 | CCSCCNCCN.Cl.Cl | 3200 mg/kg
6 | Cl.Cl.NCCCNCCSc1ccc(Cl)cc1 | 1590 mg/kg
7 | CSCCNCCCN.Cl.Cl | 3200 mg/kg
8 | CCCSCCNCCCN.Cl.Cl | 2260 mg/kg
9 | CCCSCCNCCN.Cl.Cl | 4520 mg/kg
10 | Cl.Cl.NCCSc1ccccc1 | 2260 mg/kg
11 | Cc1ccc(SCCNCCCN)cc1.Cl.Cl | 1130 mg/kg
12 | Cl.Cl.NCCCNCCSc1ccccc1 | 1340 mg/kg
13 | Cl.Cl.N=C(SCCNCCN)c1cccnc1 | 4520 mg/kg
14 | CCSCCNCCCN.Cl.Cl | 4520 mg/kg
15 | Cc1ccc(SCCNCCN)cc1.Cl.Cl | 1900 mg/kg
16 | Cl.Cl.NCCNCCSc1ccncc1 | 4520 mg/kg
17 | CCCCSCCNCCN.Cl.Cl | 4520 mg/kg
18 | CC(C)SCCNCCCN.Cl.Cl | 2260 mg/kg
19 | CSCCNCCN.Cl.Cl | 4520 mg/kg
20 | Cl.Cl.N=C(SCCNCCCN)c1cccnc1 | 4520 mg/kg
21 | CC(C)SCCNCCN.Cl.Cl | 4520 mg/kg
22 | Cl.Cl.NCCNCCSC1CCCCC1 | 1130 mg/kg
